Data source: PubChem BioAssay AID1259414 (Drosophila RNAi Screening Center, 2018)
Assay: 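Host factors increasing or decreasing Wolbachia levels in cultured fly cells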 (primary screen). Cell system: Drosophila JW18 cells infected with Wolbachia. Knock-down reagent: long dsRNA against Drosophila genes, 0.25 µg dsRNA per well of a 384-well plate. Timing: 5 days. Treatment: cells persistently infected with Wolbachia before knock-down; no added drug. Measurement: 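Automated imaging of bacterial rRNA staining divided by host cell count, reported as plate-normalised robust z-score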. Direction: Wolbachia per cell robust z: higher = more Wolbachia per host cell than the plate typical. Call rule: 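Active if absolute robust z reaches 1.5 in two or more of three replicates, leaving out multi- or no-target dsRNAs, genes unexpressed in JW18 and A1 wells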.
The deposit covers about 24,000 reagents; below is an unselected part of those that have a named target and a result. In the full data, about 1,210 (5%) are marked active. 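Inactive calls also include excluded dsRNAs with several or no targets, genes unexpressed in JW18, and well A1, regardless of score.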 A plus sign joins genes that one reagent is predicted to hit.

| gene | DRSC id | Wolbachia per cell robust z, rep 1 | Wolbachia per cell robust z, rep 2 | Wolbachia per cell robust z, rep 3 | activity call |
| --- | --- | --- | --- | --- | --- |
| Ir48b | DRSC06320 | 0.0212 | -2.18 | -3.04 | inactive |
| Syp | DRSC13444 | 0.525 | 0.28 | 0.741 | inactive |
| Syp | DRSC15286 | -0.796 | -0.153 | -1.75 | inactive |
| Syp | DRSC29126 | 0.667 | -0.219 | -5.2 | inactive |
| lncRNA:CR32773 | DRSC17330 | 0.373 | 1.05 | 0.355 | inactive |
| CG33287 | DRSC22929 | -0.361 | -0.907 | -1.53 | inactive |
| HIPP1 | DRSC11748 | 0.556 | -2.58 | 0.372 | inactive |
| HIPP1 | DRSC27992 | 0.0706 | -2.88 | -1.6 | active |
| Sfp65A | DRSC40621 | -3.64 | 0.535 | -0.904 | inactive |
| CG11865 | DRSC01872 | 0.245 | 0.869 | 1.02 | inactive |
| CG11865 | DRSC28173 | 0.474 | 0.116 | 1.07 | inactive |
| Sox14 | DRSC04656 | -2.09 | 0.063 | -0.877 | inactive |
| Sox14 | DRSC27025 | 0.438 | -0.17 | 1.58 | inactive |
| CG14210 + Pstk + Tim9b | DRSC19566 | 0.825 | -0.0585 | -0.0471 | inactive |
| Or92a | DRSC16771 | -4.89 | -0.399 | -0.63 | inactive |
| CG33234 | DRSC37784 | 0.596 | 0.417 | -0.0608 | inactive |
| CG17154 | DRSC10253 | -2.48 | 0.497 | 1.12 | inactive |
| Ir94e | DRSC15229 | 0.712 | -3.09 | -2.14 | inactive |
| Met | DRSC20284 | -4.41 | -2.2 | -0.649 | active |
| Met | DRSC27106 | 0.227 | -0.845 | 0.0238 | inactive |
| Nek2 | DRSC18124 | 0.685 | -4.63 | -0.157 | inactive |
| Nek2 | DRSC26714 | -1.91 | -0.304 | 0.181 | inactive |
| Had2 | DRSC05971 | -0.00847 | -0.0642 | -2.72 | inactive |
| Had2 | DRSC26955 | -2.24 | 0.601 | -0.134 | inactive |
| E23 | DRSC00593 | 1.13 | 0.459 | -0.697 | inactive |
| E23 | DRSC25491 | -0.097 | -0.624 | 1.42 | inactive |
| Best4 | DRSC10792 | 0.865 | 0.474 | 0.125 | inactive |
| Best4 | DRSC29196 | 0.787 | -0.213 | 0.0953 | inactive |
| Best4 | DRSC39053 | 0.219 | 0.65 | -0.229 | inactive |
| Xport-A + Xport-B | DRSC15586 | 1.06 | -0.896 | -0.855 | inactive |
| CG16800 | DRSC02518 | 0.95 | -0.166 | 0.503 | inactive |
| CG16800 | DRSC28237 | -4.55 | -0.0651 | 0.473 | inactive |
| Shark | DRSC07680 | 1.4 | 0.671 | 1.21 | inactive |
| Shark | DRSC28527 | 0.646 | 0.966 | 1.66 | inactive |
| Tsp86D | DRSC15607 | 0.798 | 0.566 | 0.035 | inactive |
| CG4270 | DRSC00648 | 0.764 | 0.629 | 0.632 | inactive |
| seq | DRSC37911 | -3.02 | -1.57 | -1.14 | inactive |
| HisCl1 | DRSC14945 | 1.14 | -5.75 | -0.252 | inactive |
| retm | DRSC03252 | -0.565 | 0.148 | 0.371 | inactive |
| Mdh1 | DRSC02846 | 1.01 | 0.329 | 0.872 | inactive |
| Pex16 | DRSC11750 | 0.533 | 0.9 | 0.338 | inactive |
| CG33143 | DRSC04151 | 1.35 | 1.04 | 1.1 | inactive |
| CG33143 | DRSC04454 | 0.921 | 1.04 | 0.558 | inactive |
| CG33143 | DRSC27587 | 0.534 | 0.0972 | -0.27 | inactive |
| CG4360 | DRSC15566 | -0.00742 | -1.16 | 0.186 | inactive |
| CG4360 | DRSC30049 | -0.286 | -1.75 | -1.11 | inactive |
| CR30029 | DRSC06724 | -1.05 | 0.401 | -0.483 | inactive |
| CG13010 | DRSC19529 | 0.611 | -0.935 | -3.25 | inactive |
| CG13010 | DRSC27744 | 0.471 | -0.314 | 0.322 | inactive |
| ZnT33D | DRSC02591 | 1.8 | 0.0528 | 0.724 | inactive |
| CG5217 | DRSC15740 | -0.516 | -0.625 | 0.605 | inactive |
| LManIV | DRSC03222 | 0.891 | -0.281 | 0.41 | inactive |
| LManIV | DRSC27811 | -2.68 | 0.426 | -0.447 | inactive |
| AQP | DRSC06122 | 0.223 | 0.599 | -2.13 | inactive |
| CG33775 | DRSC38873 | 0.199 | 0.364 | 0.228 | inactive |
| Bcat | DRSC19756 | -1.51 | -0.117 | -3.8 | active |
| Bcat | DRSC28324 | -1.12 | -0.573 | -0.704 | inactive |
| Hyccin | DRSC06983 | -0.117 | -0.98 | -0.91 | inactive |
| lncRNA:CR43314 | DRSC21354 | 0.555 | 0.383 | 0.592 | inactive |
| lncRNA:CR43314 | DRSC29259 | 0.366 | -0.532 | -0.855 | inactive |
| fal | DRSC11087 | -1.24 | -7.39 | 0.756 | inactive |
| GAPsec | DRSC10564 | -0.744 | -6.9 | 0.291 | inactive |
| GAPsec | DRSC26128 | 0.0343 | -1.5 | -0.163 | inactive |
| CG42758 | DRSC10021 | -0.00297 | -1.22 | -0.678 | inactive |
| CG13423 | DRSC06386 | -0.884 | -0.902 | -0.622 | inactive |
| Tim17b2 | DRSC28544 | -1.63 | -2.19 | -1.85 | inactive |
| CG14420 | DRSC17917 | -0.465 | -4.6 | -1.57 | inactive |
| CG14420 | DRSC25167 | -1.21 | 0.697 | -0.314 | inactive |

Entries listed so far whose gene name starts with H or h:
| gene | DRSC id | Wolbachia per cell robust z, rep 1 | Wolbachia per cell robust z, rep 2 | Wolbachia per cell robust z, rep 3 | activity call |
| --- | --- | --- | --- | --- | --- |
| HIPP1 | DRSC11748 | 0.556 | -2.58 | 0.372 | inactive |
| HIPP1 | DRSC27992 | 0.0706 | -2.88 | -1.6 | active |
| Had2 | DRSC05971 | -0.00847 | -0.0642 | -2.72 | inactive |
| Had2 | DRSC26955 | -2.24 | 0.601 | -0.134 | inactive |
| HisCl1 | DRSC14945 | 1.14 | -5.75 | -0.252 | inactive |
| Hyccin | DRSC06983 | -0.117 | -0.98 | -0.91 | inactive |
